Experiments:
His-DDX3_1–418 (human) [1] = target: His-DDX3_1–418 (human) (UniProt O00571); assay: MST
His-DDX3_1–418 (human) [2] = target: His-DDX3_1–418 (human) (UniProt O00571); assay: SEC
[3] = target: YopM from Y. enterocolitica WA314, full length, purified (Yersinia enterocolitica serotype O:8 strain WA314); assay: SEC
[4] = target: YopM_34–481 from Y. enterocolitica WA314, purified (Yersinia enterocolitica serotype O:8 strain WA314); assay: crystal structure
[5] = target: YopM_34–481 from Y. enterocolitica WA314, purified (Yersinia enterocolitica serotype O:8 strain WA314); assay: SAXS

Substance: YopM from Y. enterocolitica WA314, full length, purified (natural protein)
- Kd (His-DDX3_1–418 (human) [1]): 12 µM
- stoichiometry N (YopM per DDX3 1–418) (His-DDX3_1–418 (human) [2]): 2
- stoichiometry N [3]: 2

Substance: YopM_34–481 from Y. enterocolitica WA314, purified (domain or fragment)
- Kd (His-DDX3_1–418 (human) [1]): 18 µM
- stoichiometry N (YopM 34–481 per DDX3 1–418) (His-DDX3_1–418 (human) [2]): 2
- stoichiometry N [4]: 2
- stoichiometry N [5]: 2
